Measured values from several laboratories, pooled; numbers as filed in NIAID ChemDB.

Common to all: tests in culture; organism: HIV-1; method: p24; read-out: EC50

Blank or dashed fields: not listed here.

compound	setting	cell line	mutations	strain or isolate	result
Cc1ccc(S(=O)(=O)N[C@@H](CCCCN)C(=O)CCl)cc1		MOLT-4		IIIB	6 µM
Cc1cccc(CSc2nc(N)cc(Cl)n2)c1		MT-4		RT-WT	<0.11 µM
Cc1cn([C@H]2C[C@H](N=[N+]=[N-])[C@@H](CO)O2)c(=O)[nH]c1=O		MT-2		IIIB	0.008 µg/mL
Cc1ccc(NC(=O)Nc2ccc(-c3ccc(NC(=O)Nc4ccc(-c5ccc(NC(=O)Nc6ccc(-c7ccc(NC(=O)Nc8ccc(-c9ccc(NC(=O)Nc%10ccc(-c%11ccc(NC(=O)Nc%12ccc(C)cc%12)cc%11S(=O)(=O)O)c(S(=O)(=O)O)c%10)cc9S(=O)(=O)O)c(S(=O)(=O)O)c8)cc7S(=O)(=O)O)c(S(=O)(=O)O)c6)cc5S(=O)(=O)O)c(S(=O)(=O)O)c4)cc3S(=O)(=O)O)c(S(=O)(=O)O)c2)cc1		MT-4		RF	1.58 µM
O=C1Nc2ccc(Cl)cc2[C@@](C#CC2CC2)(C(F)(F)F)O1		PBMC		BaL	0.00004 µM
CC(C)(C)NC(=O)[C@@H]1C[C@@H]2CCCC[C@@H]2CN1C[C@@H](O)[C@H](Cc1ccccc1)NC(=O)[C@H](CC(N)=O)NC(=O)c1ccc2ccccc2n1		Primary CD4 lymphocytes + Lymphocytes		IIIB	0.0043 µM
O=Nc1c(-c2c(O)[nH]c3ccccc23)[nH]c2ccccc12		U1			<4 µM
CCCCN1C(=O)[C@@H]([C@H](O)C2CCCCC2)NC(=O)C12CCN(Cc1ccc(Oc3ccc(C(=O)O)cc3)cc1)CC2		PBMC		NL4-3 X4	>1 µM
O=c1[nH]cc(F)c(=O)[nH]1		PBMC		ERS104pre	>2 µM
CC(C)C[C@H](NC(=O)[C@@H](O)[C@H](N)Cc1ccccc1)C(=O)O		HuT-78 + HUT 78		IIIB	15 µg/mL
Cc1cn([C@H]2C[C@H](N=[N+]=[N-])[C@@H](CO)O2)c(=O)[nH]c1=O		MT-4		A17	<0.025 µM
Fc1ccccc1CCNC(=S)Nc1ccc(Br)cn1		PBMC		RT-Y181C A17 NNRTI-resistant	0.33 µM
COc1cc(-c2c3nc(c(-c4cc(OC)c(OC)c(OC)c4)c4ccc([n-]4)c(-c4cc(OC)c(OC)c(OC)c4)c4ccc([n-]4)c(-c4cc(OC)c(OC)c(OC)c4)c4nc2C=C4)C=C3)cc(OC)c1OC.[O]=[V+2]	7 d	HUT/CCR5 + HUT		BaL	<5 µM
Cc1cn([C@H]2C[C@H](N=[N+]=[N-])[C@@H](CO)O2)c(=O)[nH]c1=O	4 d	CEM		pNL4-3	0.0045 µM
C[C@@H]1O[C@@H](OC[C@H]2O[C@@H](Oc3c(-c4ccc(OS(=O)(=O)O)c(OS(=O)(=O)O)c4)oc4cc(OS(=O)(=O)O)cc(OS(=O)(=O)O)c4c3=O)[C@H](OS(=O)(=O)O)[C@@H](OS(=O)(=O)O)[C@@H]2OS(=O)(=O)O)[C@H](OS(=O)(=O)O)[C@H](OS(=O)(=O)O)[C@H]1OS(=O)(=O)O		PBMC		R5 primary isolate	13.1 µM
CCCCN1C(=O)C(CC2CCCCC2)NC(=O)C12CCN(Cc1ccc3c(c1)OCCO3)CC2		PBMC		NL4-3 X4	>1 µM
Cc1ccc(CCNC(=S)Nc2ccc(Br)cn2)cc1		PBMC	RT-K103N Y181C	A17	>100 µM
CCCCN1C(=O)C(CC2CCCCC2)NC(=O)C12CCN(Cc1ccc3c(c1)OCCO3)CC2		PBMC		BaL	0.07 µM
CC(C)[C@H](NC(=O)c1ccc2ccccc2n1)C(=O)N[C@@H](Cc1ccccc1)[C@H](O)CN1CC[C@@H](OCc2ccncc2)C[C@H]1C(=O)NC(C)(C)C		C8166		HXB2	0.0005 µM
CCc1cc(CCc2nc3c(Cl)ccc(Cl)c3o2)c(=O)[nH]c1C		H9		IIIB	<0.025 µM
Cc1cn([C@H]2C[C@H](N=[N+]=[N-])[C@@H](CO)O2)c(=O)[nH]c1=O	3 d	HUT/CCR5 + HUT		BaL	<0.5 µM
CCc1cc(CCc2nc3c(Cl)ccc(Cl)c3o2)c(=S)[nH]c1C		H9	RT-K103N Y181C	A17	<0.8 µM
O=c1[nH]c(=O)n([C@H]2C[C@H](F)[C@@H](CO)O2)cc1C(OCC(F)(F)F)OCC(F)(F)F		CEM			15 µg/mL
Cc1cn([C@H]2C[C@H](N=[N+]=[N-])[C@@H](CO)O2)c(=O)[nH]c1=O		PBMC		RF	0.001 µM
O=C(O)[C@@H](C1CCCCC1)N1C[C@H](CN2CCC(CCCc3ccccc3)CC2)[C@@H](c2ccccc2)C1		PBMC		BaL	<0.093 µM
Cn1cnc2c(NCc3ccccc3)nc(NCCO)nc21		PBMC		UG/92/029 SI CLADE A	>10 µM
S=C(NCCc1cccs1)Nc1ccc(Br)cn1		PBMC		IIIB	0.03 µM
Cc1ccc(-c2ccc3c(c2)C=C(C(=O)Nc2ccc(C[N+](C)(C)C4CCOCC4)cc2)CCC3)cc1		PBMC		BaL	0.0136 µM
NC(=O)C(c1ccccc1)(c1ccccc1)[C@H]1CCCN(CCc2ccc3c(c2)CCO3)C1		PM1		NL4-3	0.93 µM
COc1ccc2c(c1)N(C(=O)OC(C)C)[C@@H](CSC)C(=S)N2		Macrophage + Monocytes/macrophages		D117III	0.006 µM
Cc1cn([C@H]2C[C@H](N=[N+]=[N-])[C@@H](CO)O2)c(=O)[nH]c1=O		C8166		HXB2	0.018 µM
Cc1ccnc2c1NC(=O)c1cccnc1N2C1CC1		MT-4		rHXB2	<0.1 µM
CC(C)CN(C[C@@H](O)[C@H](Cc1ccccc1)NC(=O)O[C@H]1CCOC1)S(=O)(=O)c1ccc(N)cc1		PBMC	PR-L10I K43T M46I I54V L63P A71V V82A L90M Q92K	MM	0.53 µM
CC(C)(C)NC(=O)[C@H]1N(C(=O)[C@@H](O)[C@H](Cc2ccccc2)NC(=O)[C@H](CC(N)=O)NC(=O)COc2cccc3ccccc23)CSC1(C)C		PBMC(PHA STIM.) + PBMC		AZT-sens	0.13 µM
CC(C)CN(C[C@@H](O)[C@H](Cc1ccccc1)NC(=O)O[C@H]1CCOC1)S(=O)(=O)c1ccc(N)cc1	clinical isolate, multidrug-resistant	PBMC			0.5 µM
[N-]=[N+]=N[C@@H]1[C@H](O)[C@@H](CO)O[C@H]1n1ccc(N)nc1=O		CEM		IIIB	>0.5 µM
CC(C)[C@H](NC(=O)c1ccc2ccccc2n1)C(=O)N[C@@H](Cc1ccccc1)[C@H](O)CN1CC[C@@H](SCc2cccnc2)C[C@H]1C(=O)NC(C)(C)C		C8166	PR-M46I A71V I84A	WT1906-R33 (PR M46I A71V I84A)	0.326 µM
Cc1csc(NC(=S)N[C@H](C)c2ccccc2)n1		PBMC		RT-Y181C A17 NNRTI-resistant	0.16 µM
O=c1[nH]cnc2c1ncn2[C@H]1CC[C@@H](CO)O1		MT-2		LAI	3.7 µM
COc1ccc(S(=O)(=O)N(CC(C)C)C[C@@H](O)[C@H](Cc2ccccc2)NC(=O)O[C@H]2CO[C@H]3OCC[C@H]32)cc1		H9		IIIB	0.0007 µM
CC[C@H](C)[C@H](NC(=O)C(=O)OC[C@H]1O[C@@H](n2cc(C)c(=O)[nH]c2=O)C[C@@H]1N=[N+]=[N-])C(=O)O		MT-2		IIIB	0.3 µM
COC(=O)[C@H](C)NP(=O)(OC[C@H]1C/C1=C/n1cnc2c(N)nc(N)nc21)Oc1ccccc1		PBMC		ERS104pre	0.21 µM
Cc1cn([C@H]2C[C@H](N=[N+]=[N-])[C@@H](CO)O2)c(=O)[nH]c1=O		MT-4	RT-I50T	HXB2-D50(RT-I50T)	0.02 µM
Cc1cn([C@H]2CC[C@@H](CO)O2)c(=O)[nH]c1=O		CEM		BRU	>31.6 µM
C[C@@H]1O[C@@H]2OCCC[C@@H]2[C@@H]1OC(=O)N[C@@H](Cc1ccccc1)[C@H](O)CN1C[C@H]2CCCC[C@H]2C[C@H]1C(=O)NC(C)(C)C		PBMC	PR-L10I K14R R41K M46I I54V L63P A71V V82A L90M I93L	TM	>1 µM
Cc1cn([C@H]2C[C@H](N=[N+]=[N-])[C@@H](COC(=O)C(=O)NC(Cc3ccccc3)C(=O)O)O2)c(=O)[nH]c1=O		MT-2		IIIB	0.35 µM
CN(C)C(=O)/C=C/CSc1nc(N)cc(Cl)n1		MT-4		MF (DLV-resistant)	<0.74 µM
CC[C@H](C)[C@H](NC(=O)[C@H](C(C)C)[C@@H](O)[C@H](O)[C@H](CC1CCCCC1)NC(=O)[C@H](Cc1cnc[nH]1)NC(=O)COc1cccc2ccccc12)C(=O)NCc1ccccn1		H9		IIIB	0.1 µM
N[C@@H](CCC(=O)N[C@@H](CS)C(=O)NCC(=O)O)C(=O)O		H9(HIV-1(IIIB)) + H9		IIIB	>2500 µM
CC(C)(C)NC(=O)[C@@H]1CN(Cc2cccnc2)CCN1C[C@@H](O)C[C@@H](Cc1ccccc1)C(=O)N[C@H]1c2ccccc2C[C@H]1O		PBMC	PR-L10V G48M F53L I54V	ESP2-4 (PR L10V G48M F53L I54V)	0.185 µM
Cc1cccc(C)c1OCC(=O)N[C@@H](Cc1ccccc1)[C@H](O)CN1CC[C@@H](Sc2ccncc2)C[C@H]1C(=O)NC(C)(C)C		C8166	PR-I84V	BILA2185-resistant (PR I84V)	0.011 µM
O=C1N(Cc2ccc(CO)cc2)[C@H](Cc2ccccc2)[C@H](O)[C@@H](O)[C@@H](Cc2ccccc2)N1Cc1ccc(CO)cc1		PBMC		RF	<0.018 µM
COC(=O)[C@H](C)NP(=O)(OC[C@H]1C/C1=C\n1cnc2c(N)nc(N)nc21)Oc1ccccc1		MT-2		LAI	2.4 µM
CC1(Cl)C(=O)NC(=O)N([C@H]2C[C@H](N=[N+]=[N-])[C@@H](CO)O2)C1O		PBMC		IIIB	>10 µM
CC(C)CN(C[C@@H](O)[C@H](Cc1ccccc1)NC(=O)O[C@H]1[C@H]2CCCO[C@H]2O[C@@H]1C)S(=O)(=O)c1ccc(N)cc1		PBMC		PR-L63P ERS104pre	0.034 µM
Cc1cn([C@H]2C[C@H](N=[N+]=[N-])[C@@H](CO)O2)c(=O)[nH]c1=O		PBMC		JR-CSF	0.001–0.003 µM
Nc1ccn([C@H]2CC[C@@H](CO)O2)c(=O)n1		CEM		BRU	0.04 µM
Cc1cn([C@H]2C=C[C@@H](CO)O2)c(=O)[nH]c1=O		CEM		LAV	0.15 µM
Cc1cn([C@H]2C[C@H](N=[N+]=[N-])[C@@H](CO)O2)c(=O)[nH]c1=O		PBMC		NL4-3 X4	0.011 µM
COC(=O)N[C@H](C(=O)N[C@@H](Cc1ccccc1)[C@@H](O)CN(Cc1ccc(-c2ccccn2)cc1)NC(=O)[C@@H](NC(=O)OC)C(C)(C)C)C(C)(C)C		PBMC		ERS104pre	0.0025 µM
COc1ccc(C2CNC(=O)C2)cc1OC1CCCC1		A3.5		IIIB	30 µM
CCCCC#CCSc1ccccc1OC(C)=O		PBMC		IIIB A17 (NNRTI-resistant RT K103N Y181C)	>100 µM
Cc1cn([C@H]2C[C@H](N=[N+]=[N-])[C@@H](COC(=O)C(=O)O)O2)c(=O)[nH]c1=O		PBMC		IIIB	0.025 µM
CC(C)=CCN1Cc2cc(Cl)cc3[nH]c(=S)n(c23)C[C@@H]1C		MT-4		IIIB/LAI	0.01–0.02 µg/mL
CCO/N=C(\c1ccc(Br)cc1)C1CCN(C2(C)CCN(C(=O)c3c(C)cc[n+]([O-])c3C)CC2)CC1		PBMC		93MW960 R5 CLADE C	0.005 µM
O=c1[nH]c(=O)n([C@H]2C[C@H](O)[C@@H](CO)O2)cc1C(OCC(F)(F)F)OCC(F)(F)F		CEM			>100 µg/mL
Cc1cn([C@H]2C[C@H](N=[N+]=[N-])[C@@H](CO)O2)c(=O)[nH]c1=O		H9		IIIB	0.014 µM
CCN(CC)C(=O)/C=C/CSc1nc(N)cc(Cl)n1		MT-4		RT-WT	<0.02 µM
O=c1[nH]cnc2c1ncn2[C@H]1CC[C@@H](CO)O1		PBMC		9281 CLADE A CLADE A	9.63 µM
CN=C1CN=C(c2ccc[nH]2)c2cc(Cl)ccc2N1		C8166		RF	0.7 µM

Repeating the first 7 entries:

compound,setting,cell line,mutations,strain or isolate,result
Cc1ccc(S(=O)(=O)N[C@@H](CCCCN)C(=O)CCl)cc1,,MOLT-4,,IIIB,6 µM
Cc1cccc(CSc2nc(N)cc(Cl)n2)c1,,MT-4,,RT-WT,<0.11 µM
Cc1cn([C@H]2C[C@H](N=[N+]=[N-])[C@@H](CO)O2)c(=O)[nH]c1=O,,MT-2,,IIIB,0.008 µg/mL
Cc1ccc(NC(=O)Nc2ccc(-c3ccc(NC(=O)Nc4ccc(-c5ccc(NC(=O)Nc6ccc(-c7ccc(NC(=O)Nc8ccc(-c9ccc(NC(=O)Nc%10ccc(-c%11ccc(NC(=O)Nc%12ccc(C)cc%12)cc%11S(=O)(=O)O)c(S(=O)(=O)O)c%10)cc9S(=O)(=O)O)c(S(=O)(=O)O)c8)cc7S(=O)(=O)O)c(S(=O)(=O)O)c6)cc5S(=O)(=O)O)c(S(=O)(=O)O)c4)cc3S(=O)(=O)O)c(S(=O)(=O)O)c2)cc1,,MT-4,,RF,1.58 µM
O=C1Nc2ccc(Cl)cc2[C@@](C#CC2CC2)(C(F)(F)F)O1,,PBMC,,BaL,0.00004 µM
CC(C)(C)NC(=O)[C@@H]1C[C@@H]2CCCC[C@@H]2CN1C[C@@H](O)[C@H](Cc1ccccc1)NC(=O)[C@H](CC(N)=O)NC(=O)c1ccc2ccccc2n1,,Primary CD4 lymphocytes + Lymphocytes,,IIIB,0.0043 µM
O=Nc1c(-c2c(O)[nH]c3ccccc23)[nH]c2ccccc12,,U1,,,<4 µM

Two numbers with a dash give a range or band. Conditions beyond the fields shown may differ between rows. ECn: concentration that inhibits the pathogen or its effect by n%.